Experimental data as given in paper PMC5771124, “Characterization of a functional insertion sequence ISSau2 from Staphylococcus aureus”.
The exact form of at least one protein or probe is not confirmed.

Test system: ISSau2 transposase OrfAB F226L (Staphylococcus aureus E48 (ISSau2 in sdrC))
Assay: EMSA
Conditions: Mg2+, poly(dI-dC), 0.42 ug OrfAB, similar affinity to IRL42; recombinant protein; protein details: N-terminal 6-His (pET32a vector fusion); label: biotin end label; letters put together from the description

“AATTTTAATTATTTAATTGTCTACTAGACTGGGTGCAGTTCA (double strand) [IRR42]”: binds.
